In PubChem BioAssay AID504720 (Sanford-Burnham Center for Chemical Genomics, 2011):
This is a selection; strong and weak results do not stand in their true shares. The source made the active and inactive calls. Rule as the data show it: active = activation above about 50%; inactive = the rest.

The chains behind the UniProt entries cited, without tags or fusion partners.
UniProt P0AE70, whole entry, looked up: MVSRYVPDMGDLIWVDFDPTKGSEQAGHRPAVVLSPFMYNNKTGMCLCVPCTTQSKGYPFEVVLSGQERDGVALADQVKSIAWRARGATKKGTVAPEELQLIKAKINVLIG

What follows are compounds tested against Endoribonuclease toxin MazF (Escherichia coli (strain K12)) (UniProt P0AE70) (assay: activators of E. coli MazEF toxin-antitoxin RNase, primary screen, biochemical, fluorescence, uHTS (AID 504720)). Settings: FAM/BHQ RNA-DNA oligo cleavage fluorescence, 5 h, at 20 µM, hits give high values.
In the case of `COc1ccccc1OP(C)(=O)Nc1ccc(Br)cc1` (configuration not stated), the activation is reported as inactive: 3.28%. In the case of `COc1ccc(OP(C)(=O)Nc2ccccn2)cc1` (configuration not stated), the activation is reported as inactive: -9.34%. With `CN(C)CCOC(=O)C(O)(c1ccccc1)C1CCCC1` (configuration not stated) the activation was inactive: 3.87%. `Cc1c(NP(C)(=O)Oc2ccc(C(C)C)cc2)c(=O)n(-c2ccccc2)n1C` (configuration not stated) was tested, and the activation was inactive: 5.23%. In the case of `O=[N+]([O-])c1cc([N+](=O)[O-])c(Nc2ccccn2)c([N+](=O)[O-])c1`, the activation is reported as inactive: 5.33%. For `CP(=O)(Nc1ccccn1)Oc1ccccc1` (configuration not stated), the activation was inactive: -4.76%. In the case of `COc1ccccc1OP(C)(=O)Nc1ccc(C)cc1C` (configuration not stated), the activation is reported as inactive: 3.76%. In the case of `CCc1ccc(OP(C)(=O)O)cc1`, the activation is reported as inactive: -5.13%. With `O=C1C(O)=C([N+](=O)[O-])C(=O)C(O)=C1[N+](=O)[O-]` the activation was inactive: 1.23%. With `Cc1cc(C)cc(OP(C)(=O)Nc2cccc(C(F)(F)F)c2)c1` (configuration not stated) the activation was inactive: -7.2%. `COc1ccccc1OP(C)(=O)Nc1ccc(C)c(C)c1` (configuration not stated) was tested, and the activation was inactive: 3.67%. In the case of `COc1ccc(OP(C)(=O)Nc2ccccc2Br)cc1` (configuration not stated), the activation is reported as inactive: 9.22%. For `CCCCCCCCCCCCCCCC1C[N+](C)(C)CCOP(C)(=O)O1` (configuration not stated), the activation was inactive: -28.8%. With `CP(=O)(Nc1ccc(Cl)cc1Cl)Oc1ccccc1` (configuration not stated) the activation was inactive: 1.95%. In the case of `CP(=O)(OCCOc1ccccc1)OCCOc1ccccc1`, the activation is reported as inactive: -2.55%. `Nc1ccc2c(ccc3cccnc32)n1.O=[N+]([O-])c1cc([N+](=O)[O-])c(O)c([N+](=O)[O-])c1` was tested, and the activation was inactive: 0.025%. For `CCOC(=O)c1ccc(NP(C)(=O)Oc2ccc(Cl)cc2)cc1` (configuration not stated), the activation was inactive: -2.88%. In the case of `CP(=O)(OC12CC3CC(CC(C3)C1)C2)OC12CC3CC(CC(C3)C1)C2`, the activation is reported as inactive: -2.4%. With `CCN(CC)CC(O)COC(=O)C(O)(c1ccccc1)C1CCCCC1` (configuration not stated) the activation was inactive: -0.849%. With `COc1ccc(OP(C)(=O)Nc2ccc(Br)cc2)cc1` (configuration not stated) the activation was inactive: -0.483%. With `COc1ccccc1OP(C)(=O)Nc1c(C)n(C)n(-c2ccccc2)c1=O` (configuration not stated) the activation was inactive: 0.59%. `O=C(OCCCN1CCCC1)C(O)(c1ccccc1)C1CCCCC1` (configuration not stated) was tested, and the activation was inactive: -1.08%. For `CP(=O)(Oc1ccccc1)N1CCOC1=O` (configuration not stated), the activation was inactive: 5.23%. With `CCc1ccc(OP(C)(=O)Nc2cccnc2)cc1` (configuration not stated) the activation was inactive: 0.751%. `COc1ccccc1OP(C)(=O)Nc1ccccc1Br` (configuration not stated) was tested, and the activation was inactive: -0.837%. For `CC(C)(C)c1ccc(OP(C)(=O)O)cc1`, the activation was inactive: -5.08%. `CP(=O)(Nc1ccc(Cl)cc1)Oc1ccc(F)cc1` (configuration not stated) was tested, and the activation was inactive: -8.51%. `CN(C)C(=O)c1c([N+](=O)[O-])cc([N+](=O)[O-])cc1[N+](=O)[O-]` was tested, and the activation was inactive: -13.9%. With `CP(=O)(Nc1ccc(SC(F)(F)F)cc1)Oc1ccc(F)cc1` (configuration not stated) the activation was inactive: -15.1%. `CCOP(C)(=S)SCC(=O)NC(C)(CC)C(=O)O` (configuration not stated) was tested, and the activation was inactive: -0.38%. In the case of `CP(=O)(Nc1ccc2c(c1)OCCO2)Oc1ccccc1` (configuration not stated), the activation is reported as inactive: -2.09%. `Cc1ccccc1NP(C)(=O)Nc1ccccc1C` was tested, and the activation was inactive: -9.33%. In the case of `COc1ccc(OP(C)(=O)Nc2cccc(Br)c2)cc1` (configuration not stated), the activation is reported as inactive: 4.08%. For `CN(C)CCOC(=O)C(O)(c1ccccc1)C1CCCCC1` (configuration not stated), the activation was inactive: 2.34%. With `COc1ccc(NP(C)(=O)Oc2ccccc2OC)cc1` (configuration not stated) the activation was inactive: 1.48%. `O=[N+]([O-])c1ccc(OP2(=O)COCCO2)cc1` (configuration not stated) was tested, and the activation was inactive: 2.36%. With `O=[N+]([O-])c1cc([N+](=O)[O-])c(NCC2CCS(=O)(=O)C2)c([N+](=O)[O-])c1` (configuration not stated) the activation was inactive: -0.625%. With `Cc1cc(-c2cccc3ccccc23)c(C)cn1.O=[N+]([O-])c1cc([N+](=O)[O-])c(O)c([N+](=O)[O-])c1` the activation was inactive: -11.3%. In the case of `Cc1c(C(c2ccc3c(c2)OCO3)c2c(C)n(C)n(-c3ccccc3)c2=O)c(=O)n(-c2ccccc2)n1C.O=[N+]([O-])c1cc([N+](=O)[O-])c(O)c([N+](=O)[O-])c1`, the activation is reported as inactive: -15.2%. With `CCOC(=O)c1ccc(NP(C)(=O)Oc2ccc(F)cc2)cc1` (configuration not stated) the activation was inactive: 4.55%. `COc1ccc(OP(C)(=O)Nc2ccc(SC(F)(F)F)cc2)cc1` (configuration not stated) was tested, and the activation was inactive: 7.02%. In the case of `Cc1c([N+](=O)[O-])cc([N+](=O)[O-])c(Br)c1[N+](=O)[O-]`, the activation is reported as inactive: -3%. `CCN(CC)CCCOC(=O)C(O)(c1ccccc1)C1CCCCC1` (configuration not stated) was tested, and the activation was inactive: -1.02%. With `CP(=O)(Nc1ccccc1)Oc1ccc(F)cc1` (configuration not stated) the activation was inactive: 2.31%. `CCCCCOc1ccc(NP(C)(=O)Oc2ccc(Cl)cc2Cl)cc1` (configuration not stated) was tested, and the activation was inactive: -13.4%. For `O=[N+]([O-])c1cc([N+](=O)[O-])c(OC2CCCCC2O)c([N+](=O)[O-])c1` (configuration not stated), the activation was inactive: -5.19%. In the case of `O=[N+]([O-])c1cc([N+](=O)[O-])c(Nc2ccc(Cl)cc2)c([N+](=O)[O-])c1`, the activation is reported as inactive: 8.31%.
